Anti-infective test results gathered from many reports (values: NIAID ChemDB through PubChem).

All rows: tests in culture

Two numbers with a dash give a range or band. A number after MIC or MFC names an inhibition level or a share of isolates. An empty or dashed field is not shown. ECn: concentration that inhibits the pathogen or its effect by n%. Percent inhibition refers to the dose given; in toxicity tests it is the harm to the cells. Conditions beyond the fields shown may differ between rows.

structure	agent	strain	mutations	cell line	method	endpoint	tested at	value
CCCC(CCC)C(NC(C)=O)C1C(N=C(N)N)CC(C(=O)O)C1O	Influenza A virus	H1N1 A/PR/8/34	-	MDCK	-	EC50	-	0.7 µM
COc1cc(O)c2c(=O)cc(-c3ccccc3)oc2c1CC=C(C)C	Dengue virus	Type 2/Mexican isolate	-	LLC-MK2	plaque count	inhibition	6 µM	0%
CCCc1cc(=O)oc2c3c(c4c(c12)OC(C)(C)[C@H](O)[C@@H]4O)O[C@H](C)[C@@H](C)[C@@H]3O	Measles virus	Chicago-1	-	CV-1	cytopathic effect	EC50	-	5 µg/mL
C=CCc1ccc(O)c(OC)c1	Candida glabrata	2993	-	-	turbidity	MIC90	-	495 µg/mL
N=C(N)c1ccc2nc(-c3ccc(-c4nc5ccc(C(=N)N)cc5[nH]4)[nH]3)[nH]c2c1	Candida albicans	Isolate CA1247	-	-	-	MFC	-	0.78 µg/mL
CCCCCCCCOC(=O)[C@]1(O)C[C@@H](O)[C@@H](O)[C@H](OC(=O)/C=C/c2ccc(O)c(O)c2)C1	Aspergillus parasiticus	Speare UMIP 1142.76	-	-	-	MIC	-	<500 µg/mL
NC(=S)Nc1cccc(NCCCCc2ccccc2)c1	Hepatitis C virus	-	-	Ava5-EG(delta4AB)SEAP	reporter gene / fluorescence	EC50	-	0.001–1 µM
CCC(C)n1ncn(-c2ccc(N3CCN(c4ccc(OC[C@H]5CO[C@](Cn6cncn6)(c6ccc(Cl)cc6Cl)O5)cc4)CC3)cc2)c1=O	Aspergillus fumigatus	AF293	sakA	-	broth dilution	inhibition	1 µg/mL	99.45%
COc1ccc(OCc2ccccc2C(=O)NC(=S)Nc2ccccc2I)cc1	Toxoplasma gondii	RH beta-gal	-	Human foreskin fibroblasts (HFF)	-	EC50	-	86 µM
CCC(CC)[C@H](NC(C)=O)[C@@H]1C[C@@H](C(=O)O)C[C@H]1N=C(N)N	Influenza A virus	Influenza A/Virginia/2/88R (H3N2)	-	MDCK	-	EC50	-	<0.01 µM
CC(C)CS[C@H]1C[C@@H](n2cnc3c(N)ncnc32)[C@H](O)[C@@H]1O	Punta Toro virus	-	-	HeLa	cytopathic effect	EC50	-	>80 µg/mL
CCOC(=O)/C=C/[C@H](C[C@@H]1CCNC1=O)NC(=O)[C@@H](CC(=O)[C@@H](NC(=O)c1cc(C)on1)C(C)C)Cc1ccc(F)cc1	Rhinovirus	Isolate 24	-	OHIO HELA-I	cytopathic effect / visual reading	EC50	-	0.02 µg/mL
CCOc1ccc(-n2c(C(=O)NCc3ccccc3)c3n(c2=O)CCN(C(=O)c2ccc(Cl)c(Cl)c2)C3)cc1	Hepatitis B virus	-	-	HepG2.117	PCR	EC50	-	0.5–5 µM
CCCCN1CCN(C(=S)Nc2cccc(OCCCCCc3ccccc3)c2)C1=S	Hepatitis C virus	-	-	Ava5-EG(delta4AB)SEAP	reporter gene / fluorescence	EC50	-	0.001–1 µM
N#Cc1cc([N+](=O)[O-])ccc1Oc1ccc(Cl)c(Cl)c1	Coxsackie virus	TYPE B4	-	VERO	plaque count	inhibition	1 µg/mL	93.2%
C/C=C\[C@@H]1C[C@H](C(=O)O)N[C@H]1[C@@H](NC(C)=O)[C@](C)(CCC)OC	Influenza A virus	Influenza A H3N2 isolate C26C	-	MDCK	plaque count	EC50	-	5.1 µg/mL
C[C@H]1CN(c2ccc(-n3c(C(=O)NCc4ccccc4)c4n(c3=O)CCN(C(=O)c3ccc(Br)c(Cl)c3)C4)cc2)CCO1	Hepatitis B virus	-	-	HepG2.117	PCR	EC50	-	0.1–0.5 µM
CCCc1cc(=O)oc2cc(OS(=O)(=O)c3ccc(C)cc3)cc(OS(=O)(=O)c3ccc(C)cc3)c12	Measles virus	Edmonston	-	CV-1	cytopathic effect	EC50	-	5 µg/mL
Nc1nc2c(ncn2COCCO)c(=O)[nH]1	Guinea pig herpesvirus	Lymphotropic	-	GPE	plaque count	EC50	-	144.5 µg/mL
Oc1ccccc1N=Cc1ccc(F)cc1	Cryptococcus neoformans	ATCC 24067	-	-	-	MIC99	-	4 µg/mL
O=C(NC(=S)Nc1ccc(Cl)cc1Cl)c1ccccc1COc1ccc(F)cc1	Toxoplasma gondii	RH beta-gal	-	Human foreskin fibroblasts (HFF)	-	EC50	-	69 µM
CC(C)Nc1nc2cc(Cl)c(Cl)cc2n1[C@H]1O[C@@H](CO)[C@H](O)[C@@H]1O	Guinea pig cytomegalovirus	-	-	HFF	plaque count	EC50	-	>53 µM
COc1ccc(OCc2ccccc2C(=O)NC(=S)Nc2ccccc2Cl)cc1	Toxoplasma gondii	RH beta-gal	-	Human foreskin fibroblasts (HFF)	-	EC50	-	36 µM
OC[C@H]1O[C@@H](n2c(Br)nc3cc(Cl)c(Cl)cc32)[C@H](O)[C@@H]1O	Rat cytomegalovirus	-	-	HFF	plaque count	EC50	-	26 µM
O=[N+]([O-])c1ccc(C=Nc2ccccc2O)cc1	Cryptococcus gattii	135L/03	-	-	-	MIC99	-	16 µg/mL
CCCc1cc(=O)oc2cc(OC(=O)C(C)(C)C)c3c(c12)OC(C)(C)C=C3	Measles virus	CC	-	CV-1	cytopathic effect	EC50	-	2 µg/mL
CC(C)Oc1ccc(-n2c(C(=O)NCc3ccccc3)c3n(c2=O)CCN(C(=O)/C=C/c2cccc(Cl)c2Cl)C3)cc1	Hepatitis B virus	-	-	HepG2.117	PCR	EC50	-	>5 µM
COC(=O)c1ccc(C(=O)NC(=O)c2ccccc2O)cc1	Toxoplasma gondii	-	-	Human foreskin fibroblasts	-	MIC50	-	>1 µM
O=C(NC(=S)Nc1c(Cl)cccc1Cl)c1ccccc1COc1ccc(Cl)cc1	Toxoplasma gondii	RH beta-gal	-	Human foreskin fibroblasts (HFF)	-	EC50	-	52 µM
Oc1ccccc1N=Cc1cccc(O)c1O	Cryptococcus gattii	547/OTTI-97-PI-10	-	-	-	MIC99	-	5.7 µg/mL
CS(=O)(=O)c1ccc(C(=O)NC(=O)c2ccccc2O)cc1	Toxoplasma gondii	-	-	Human foreskin fibroblasts	-	MIC50	-	>0.25 µM
COc1cccc(NC(=S)NC(=O)c2ccccc2COc2ccc(Cl)cc2)c1	Toxoplasma gondii	RH beta-gal	-	Human foreskin fibroblasts (HFF)	-	EC50	-	97 µM
O[C@@H]1[C@H](O)[C@H](O)CO[C@H]1n1c(Br)nc2cc(Cl)c(Cl)cc21	Rhesus cytomegalovirus	-	-	HFF	plaque count	EC50	-	6.3 µM
Cc1nc(NCCCCNc2ccnc3cc(Cl)ccc23)nc(-c2ccccc2)c1C(=O)OC(C)C	Cryptococcus gattii	196L/03	-	-	-	MIC99	-	8 µg/mL
CCc1ccc(C(=O)NC(=O)c2ccccc2)cc1	Toxoplasma gondii	-	-	Human foreskin fibroblasts	-	MIC50	-	>0.25 µM
CCOC(=O)Cc1ccc(CNC(=O)c2c3n(c(=O)n2-c2ccc(OC)cc2)CCN(C(=O)c2ccc(Br)c(Cl)c2)C3)cc1	Hepatitis B virus	-	-	HepG2.117	PCR	EC50	-	>5 µM
CCOC(=O)c1c(C)nc(OCCCNc2ccnc3cc(Cl)ccc23)nc1-c1ccccc1	Cryptococcus neoformans	27JF	-	-	-	MIC99	-	4 µg/mL
Nc1nc2c(ncn2COC(CO)CO)c(=O)[nH]1	Human cytomegalovirus	VR6200 (ganciclovir-susceptible)	-	-	plaque count	EC90	-	4.1 µM
NC(=S)Nc1cccc(OCCCCCOc2ccc(-c3cccs3)cc2)c1	Hepatitis C virus	-	-	Ava5-EG(delta4AB)SEAP	reporter gene / fluorescence	EC50	-	0.001–1 µM
O=C(NC(=O)c1ccccc1O)Nc1ccc(OC(F)(F)F)cc1	Toxoplasma gondii	-	-	Human foreskin fibroblasts	-	MIC50	-	>0.25 µM
CCOC(=O)c1c(C)nc(NCCCCNc2ccnc3cc(Cl)ccc23)nc1-c1ccc(F)cc1	Cryptococcus neoformans	LMM 820	-	-	-	MIC99	-	8 µg/mL
NC(=S)Nc1cccc(NCCCCCCCc2ccccc2)c1	Hepatitis C virus	-	-	Ava5-EG(delta4AB)SEAP	reporter gene / fluorescence	EC50	-	0.001–1 µM
CCC(CC)[C@H](NC(C)=O)[C@@H]1[C@H](O)[C@@H](C(=O)O)C[C@H]1N=C(N)N	Influenza A virus	H1N1 A/NWS/33	-	MDCK	-	EC50	-	21 µM
CCCc1cc(=O)oc2cc(OS(=O)(=O)c3ccc(C)cc3)cc(O)c12	Measles virus	CC	-	CV-1	cytopathic effect	EC50	-	1 µg/mL
COc1ccc(NC(=S)NC(=O)c2ccccc2COc2ccc(OC)cc2)cc1	Toxoplasma gondii	RH beta-gal	-	Human foreskin fibroblasts (HFF)	-	EC50	-	57 µM